Laboratory results: PubChem BioAssay AID504761 (Drosophila RNAi Screening Center, 2011)
The deposit covers about 22,000 reagents; this is a random part of those with a known target gene and a result. Of all reagents, 116 (0.52%) were called active. 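Calls depend on retest data that are not deposited; infection was ranked per plate without normalising between plates; the unit of the infection score is not given.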 Not all columns of the deposit are shown. The record does not give: the amount of reagent, the time to read-out.

Assay: 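Genome-wide fly cell screen for genes dengue virus requires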 (primary screen)
Cell system: D.Mel-2 cells from Drosophila
Knock-down reagent: long dsRNA against Drosophila genes
Conditions: infection with dengue virus type 2; dose and infection time not stated
Read-out: 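Per well on two replicate plates, imaging gave the percent of cells positive for viral envelope protein, ranked by infection, and a nuclear count of cells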
Reading the numbers: infection score: higher = more virus-infected cells
Hit rule: 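Very low infection ranking in both replicate wells (chance probability at most 0.065), then a retest showing infection dropped 1.5-fold or more at p below 0.05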
Meaning of the calls: active = confirmed: knock-down lowers infection; inactive = not picked or not confirmed

The opening 2 records, ahead of the listing:
CG18814 [DRSC10347]
- infection score, replicate 1: 3.04
- activity call: inactive

Su(var)2-HP2 [DRSC06204]
- infection score, replicate 1: 8.16
- activity call: inactive

Results, from the start:
CG18814 [DRSC10347]
- infection score, replicate 1: 3.04
- activity call: inactive

Su(var)2-HP2 [DRSC06204]
- infection score, replicate 1: 8.16
- activity call: inactive

Su(var)2-HP2 [DRSC29542]
- infection score, replicate 1: 27
- activity call: inactive

CG5790 [DRSC02896]
- infection score, replicate 1: 4.76
- activity call: inactive

CG5790 [DRSC26201]
- infection score, replicate 1: 16.3
- activity call: inactive

CG18596 [DRSC15355]
- infection score, replicate 1: 12.8
- activity call: inactive

CG7017 [DRSC10762]
- infection score, replicate 1: 4.66
- activity call: inactive

Tm1 [DRSC13082]
- infection score, replicate 1: 4.59
- activity call: inactive

Tm1 [DRSC13083]
- infection score, replicate 1: 2.12
- activity call: inactive

Tm1 [DRSC16886]
- infection score, replicate 1: 20.6
- activity call: inactive

Tm1 [DRSC25249]
- infection score, replicate 1: 1.53
- activity call: inactive

E(Pc) [DRSC05281]
- infection score, replicate 1: 10.1
- activity call: inactive

E(Pc) [DRSC07408]
- infection score, replicate 1: 20.3
- activity call: inactive
